Experimental data as given in article PMC5384747, “Characterization and mutational analysis of a nicotinamide mononucleotide deamidase from Agrobacterium tumefaciens showing high thermal stability and catalytic efficiency” (PLoS ONE, 2017).

tested on: NC(=O)c1ccc[n+]([C@@H]2O[C@H](COP(=O)(O)O)[C@@H](O)[C@H]2O)c1; test: purified protein; details: 50 mM sodium phosphate pH 7.5, 37 °C

Compared with “AtCinA (NMN deamidase) (Agrobacterium fabrum str. C58; T105A)”, “AtCinA (NMN deamidase) (Agrobacterium fabrum str. C58; Y58F)” is 12-fold higher in Km: 158 ± 14 µM for the first, 1930 ± 50 µM for the second.

Going from “AtCinA (NMN deamidase) (Agrobacterium fabrum str. C58; S48A)” to “AtCinA (NMN deamidase) (Agrobacterium fabrum str. C58; C32A)”, the Km falls from 51 ± 3 µM to 28 ± 3 µM (1.8-fold).

Going from “AtCinA (NMN deamidase) (Agrobacterium fabrum str. C58; T105A)” to “AtCinA (NMN deamidase) (Agrobacterium fabrum str. C58; Y58F)”, the kcat falls from 3.5 s⁻¹ to 1.5 s⁻¹ (2.3-fold).

“AtCinA (NMN deamidase) (Agrobacterium fabrum str. C58; S48A)” and “AtCinA (NMN deamidase) (Agrobacterium fabrum str. C58; C32A)” are within 1.5-fold of each other in kcat: 8.7 s⁻¹ for the first, 7.3 s⁻¹ for the second.

Compared with “AtCinA (NMN deamidase) (Agrobacterium fabrum str. C58; T105A)”, “AtCinA (NMN deamidase) (Agrobacterium fabrum str. C58; Y58F)” is 28-fold lower in kcat/Km: 22100 M⁻¹ s⁻¹ for the first, 800 M⁻¹ s⁻¹ for the second.

First: AtCinA (NMN deamidase) (Agrobacterium fabrum str. C58; S48A)
Second: AtCinA (NMN deamidase) (Agrobacterium fabrum str. C58; C32A)
The kcat/Km of the first is 1.5-fold lower: 171000 M⁻¹ s⁻¹ for the first, 260000 M⁻¹ s⁻¹ for the second.
